The subject of one data set is L. donovani intracellular amastigotes infecting THP-1 macrophages. The experiment in a line: GSK intramacrophage L. donovani assay (LD AMMAC, inMac; Assay Conditions C). In kind it is cell-based, Leishmania donovani. Particulars: (LD MAC EC50)/(LD AMMAC EC50). The essentials: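 L. donovani amastigotes within THP-1 macrophages; EC50 based on average intracellular amastigotes per infected cell (AMMAC). Infected-cell percentage (INFCELL) and host-cell number (MAC) also read, the latter as toxicity output.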
Consider `COc1ccc(N2C(=O)c3[nH]nc(CC(C)C)c3C2c2ccc(F)cc2)cc1F` (stereo not shown) [Compound 42, 5-(3-fluoro-4-methoxyphenyl)-4-(4-fluorophenyl)-3-isobutyl-4,5-dihydropyrrolo[3,4-c]pyrazol-6(2H)-one], for which the “SI MAC” value was determined as 19.3. The same measure, in the same setting: the figure for `COc1cccc(N2C(=O)c3[nH]nc(CC(C)C)c3C2c2ccc(F)cc2)c1` (stereo not shown) [Compound 30] is 2.5; for `COc1ccc(N2C(=O)c3[nH]nc(CC(C)C)c3C2C2CCN(Cc3ccccc3)CC2)cc1` (stereo not shown) [Compound S1] it is 1.3. Take `COc1ccc(N2C(=O)c3[nH]nc(CC(C)C)c3C2c2cccc(Cl)c2)cc1` (stereo not shown) [Compound 59]: the “SI MAC” value came to 5.0. Still for that read-out and setting: the figure for `CC(C)Cc1n[nH]c2c1C(c1ccc(F)cc1)N(c1cccnc1)C2=O` (stereo not shown) [Compound 32] is greater than 2.0. On the same count and under the same terms, the figure for `COc1ccc(N2C(=O)c3[nH]nc(-c4ccc(CC(C)C)cc4)c3C2c2ccc(F)cc2)cc1` (stereo not shown) [Compound 17] is 2.0; for `COc1ccc(N2C(=O)c3[nH]nc(CC(C)C)c3C2c2ccc(F)cc2)cn1` (stereo not shown) [Compound 31] it is greater than 5.0. For `CC(C)Cc1n[nH]c2c1C(c1ccc(F)cc1)N(c1ccc(OC(F)(F)F)cc1)C2=O` (stereo not shown) [Compound 20], the “SI MAC” value was determined as 2.5. Same read-out and setting: the figure for `CCOc1ccc(N2C(=O)c3[nH]nc(CC(C)C)c3C2c2ccc(F)cc2)cc1` (stereo not shown) [Compound 19] is 12.5; for `CC(C)Cc1n[nH]c2c1C(c1ccc(F)cc1)N(c1ccc3c(c1)OCCO3)C2=O` (stereo not shown) [Compound 45] it is 7.9; for `CC(C)Cc1n[nH]c2c1C(c1ccc(F)cc1)N(C1CCC(N(C)C)CC1)C2=O` (stereo not shown) [Compound 37] it is greater than 2.0.

The same data set, now with this note: THP-1 CC50 / L. donovani EC50 (THP-1).
In the case of `COC(=O)c1ccc(N2C(=O)c3[nH]nc(CC(C)C)c3C2c2cccc(C(F)(F)F)c2)cc1` (stereo not shown) [CMLD011080], the “SI Host cell potency/L. donovani potency” value is reported as 4.0.

Regarding `CCCn1nc2c(c1CC(C)C)C(c1ccc(F)cc1)N(c1ccc(OC)cc1)C2=O` (stereo not shown) [CMLD010990], the “SI Host cell potency/L. donovani potency” value is on record as 3.2. Still for that read-out and setting: the figure for `CC(C)Cc1n[nH]c2c1C(c1ccc(F)cc1)N(CC(C)(CO)CO)C2=O` (stereo not shown) [CMLD011038] is 1.0; for `COc1ccc(N2C(=O)c3[nH]nc(CC(C)C)c3[C@H]2c2ccccc2Br)cn1` [CMLD010977] it is 12.6. Take `COc1cc(N2C(=O)c3[nH]nc(CC(C)C)c3C2c2ccc(F)cc2)ccc1F` (stereo not shown) [CMLD011073]: the “SI Host cell potency/L. donovani potency” value stood at 0.8. Turning to `CC(C)Cc1n[nH]c2c1C(c1cccc(C(F)(F)F)c1)N(c1ccc3c(c1)OCO3)C2=O` (stereo not shown) [CMLD011139], the “SI Host cell potency/L. donovani potency” value turned out to be 6.3.

The same data set, now with this note: rows whose L. donovani EC50 is in THP-1 cells (c).
With `CCC(C)(COC(C)=O)CN1C(=O)c2[nH]nc(CC(C)C)c2C1c1ccc(F)cc1` (stereo not shown) [CMLD011035], the “SI Host cell potency/L. donovani potency” value is 5.0. `COC(=O)c1ccc(N2C(=O)c3[nH]nc(CC(C)C)c3C2c2ccc(F)cc2)cc1` (stereo not shown) [CMLD011033]: the “SI Host cell potency/L. donovani potency” value is recorded as 20.0. On the same count and under the same terms, then `COc1ccc(N2C(=O)c3[nH]nc(CC(C)C)c3C2c2ccccc2Cl)c(OC)c1` (stereo not shown) [CMLD011103], with 2.0.

With `CCc1ccc(N2C(=O)c3[nH]nc(CC(C)C)c3C2c2ccc(F)cc2)cc1` (stereo not shown) [CMLD010899], the “SI Host cell potency/L. donovani potency” value amounted to 50.

Turning to `COc1ccc(N2C(=O)c3[nH]nc(CC(C)C)c3C2c2cccs2)cc1` (stereo not shown) [CMLD011110], the “SI Host cell potency/L. donovani potency” value was greater than 6.3. For `CC(C)Cc1n[nH]c2c1C(c1ccc(F)cc1)N(c1ccc(F)cc1F)C2=O` (stereo not shown) [CMLD011097], the “SI Host cell potency/L. donovani potency” value is given as 3.2. As for `COc1ccc(N2C(=O)c3[nH]nc(CC(C)C)c3C2C2CCN(Cc3ccccc3)CC2)cc1` (stereo not shown) [CMLD010882], the “SI Host cell potency/L. donovani potency” value is 1.3.

In the case of `COc1cc(N2C(=O)c3[nH]nc(CC(C)C)c3C2c2cccc(C(F)(F)F)c2)cc(OC)c1OC` (stereo not shown) [BUCMD00803], the “SI Host cell potency/L. donovani potency” value turned out to be 2.5. For the compound `COc1ccc(N2C(=O)c3[nH]nc(CC(C)C)c3C2c2ncccc2Cl)cc1` (stereo not shown) [CMLD011575], the “SI Host cell potency/L. donovani potency” value amounted to 2.0. On the same count and under the same terms, then `COc1ccc(N2C(=O)c3[nH]nc(-c4ccc(Cl)cc4Cl)c3C2c2ccc(F)cc2)cc1` (stereo not shown) [CMLD011093], with greater than 2.5.

Regarding `C=CCn1nc(CC(C)C)c2c1C(=O)N(c1ccc(OC)cc1)C2c1ccc(F)cc1` (stereo not shown) [CMLD010985], the “SI Host cell potency/L. donovani potency” value is on record as 12.6.

In the case of `COc1ccc(N2C(=O)c3[nH]nc(CC(C)C)c3C2c2cccc(C(F)(F)F)c2)cc1` (stereo not shown) [CMLD007432], the “SI Host cell potency/L. donovani potency” value is 2.5. Same read-out and setting: then `COc1ccc(N2C(=O)c3[nH]nc(CC(C)C)c3C2c2ccccc2OC)cc1` (stereo not shown) [CMLD010994], with 50.2; and `COc1ccc(N2C(=O)c3[nH]nc(CC(C)C)c3C2c2cc(C(F)(F)F)ccc2C(F)(F)F)cc1` (stereo not shown) [CMLD010996], with 4.0. As to `COc1ccc(N2C(=O)c3[nH]nc(CC(C)C)c3C2c2ccc(F)cc2)cn1` (stereo not shown) [BUCMD00808], the “SI Host cell potency/L. donovani potency” value is greater than 5. Same read-out and setting: the figure for `Cc1ccc(CN2C(=O)c3[nH]nc(CC(C)C)c3C2c2ccc(F)cc2)o1` (stereo not shown) [CMLD011092] is greater than 2.5.

In the case of `COc1ccc(N2C(=O)c3[nH]nc(CC(C)C)c3C2c2cccc(Br)c2)cc1` (stereo not shown) [CMLD010891], the “SI Host cell potency/L. donovani potency” value was 3.2.

`COc1ccc(N2C(=O)c3[nH]nc(CC(C)C)c3C2c2cccc(F)c2)cc1` (stereo not shown) [CMLD010890]: the “SI Host cell potency/L. donovani potency” value turned out to be 2.5.

The subject of another data set is L. donovani intracellular amastigotes in B10R cells. The data set is described as follows: UCSD L. donovani infection assay (Assay Conditions D). Type of data set: cell-based. The note with it: UCSD assay, CC50 versus L. donovani infection EC50. The procedure: (§1) Assay Conditions D: B10R cells (CVCL_0155) were seeded at 300 cells/well, and L. donovani WT promastigotes in stationary phase (7th day after passage) were added at 6,000 parasites/well (ratio of 20 parasites/cell). Both cells and parasites were seeded in DMEM High-Glucose medium (Gibco, cat. no. 11995065) containing 5% Fetal Bovine Serum (Sigma-Aldrich, cat. no. F2442) and 1% Penicillin-Streptomycin (Gibco, cat. no. 15140122). Cells and parasites were incubated in the presence of the compounds for 72 h at 37° C. and 5% C02. Plates were then fixed with 4% formaldehyde solution for at least 1 h, then washed with 1×PBS and stained with 5 μg/mL DAPI. Plates were read using an ImageXpress microscope (Molecular Devices) and analyzed by MetaXpress software (Molecular Devices) using a custom module optimized for this assay. […] Compounds were tested in a 10-point 2-fold serial dilution in 3 technical replicates, and 2 biological replicates. After 72 h, plates were fixed and stained with DAPI as described above. Images were acquired on an ImageXpress microscope, and analyzed using the MetaXpress custom module.
as §1, with “Compounds were obtained as 0.2 μmoles of dried film for primary single point screening. Each compound was diluted in DMSO to 10 μM final testing concentration. These compounds were tested in 2 biological replicates. The compounds were pre-spotted onto 384-well assay plates in single concentration.” for “Assay Conditions D:”, “CO2.” for “C02.”, “module. The DRCs were plotted, half-effective concentration (EC50) and half-cytotoxic concentration (CC50) were calculated using GraphPad Prism Software, version 6.05 (GraphPad Software, San Diego, CA).” for “module.”
`COc1cc(F)ccc1C1c2c(CC(C)C)n[nH]c2C(=O)N1c1ccc(N(C)C)cc1` (stereo not shown) [Compound 82, 5-(4-(dimethylamino)phenyl)-4-(4-fluoro-2-methoxyphenyl)-3-isobutyl-4,5-dihydropyrrolo[3,4-c]pyrazol-6(1H)-one] yielded an SI of 212.5.

In the case of `COc1ccccc1C1c2c(CC(C)C)n[nH]c2C(=O)N1c1ccc(Br)cc1` (stereo not shown) [Compound 75, 5-(4-bromophenyl)-3-isobutyl-4-(2-methoxyphenyl)-4,5-dihydropyrrolo[3,4-c]pyrazol-6(1H)-one], the SI is on record as 4.8. Same read-out and setting: the figure for `Cc1cc(F)ccc1C1c2c(CC(C)C)n[nH]c2C(=O)N1c1ccc2ncnn2c1` (stereo not shown) [Compound 89, 5-([1,2,4]triazolo[1,5-a]pyridin-6-yl)-4-(4-fluoro-2-methylphenyl)-3-isobutyl-4,5-dihydropyrrolo[3,4-c]pyrazol-6(1H)-one] is greater than 24.4; for `Cc1cc(F)ccc1C1c2c(CC(C)C)n[nH]c2C(=O)N1c1ccc(N(C)C)cc1` (stereo not shown) [Compound 81, 5-(4-(dimethylamino)phenyl)-4-(4-fluoro-2-methylphenyl)-3-isobutyl-4,5-dihydropyrrolo[3,4-c]pyrazol-6(1H)-one] it is 68.3. The compound `COc1ccccc1C1c2c(CC(C)C)n[nH]c2C(=O)N1c1ccc(N(C)C)cc1` (stereo not shown) [Compound 80, 5-(4-(dimethylamino)phenyl)-3-isobutyl-4-(2-methoxyphenyl)-4,5-dihydropyrrolo[3,4-c]pyrazol-6(1H)-one] displayed an SI of 49.3. The same measure, in the same setting: then `COc1ccc(N2C(=O)c3[nH]nc(CC(C)C)c3C2c2ccccc2OC)cc1F` (stereo not shown) [Compound 72, 5-(3-fluoro-4-methoxyphenyl)-3-isobutyl-4-(2-methoxyphenyl)-4,5-dihydropyrrolo[3,4-c]pyrazol-6(1H)-one], with 0.7.

Still in this data set, the particulars now being: rows whose L. donovani potency is in B10R cells (d).
Take `COc1cc(F)ccc1C1c2c(CC(C)C)n[nH]c2C(=O)N1c1ccc(N(C)C)cc1` (stereo not shown) [CMLD011572]: the “SI Host cell potency/L. donovani potency” value is 212.5.

Take `COc1ccc(N2C(=O)c3[nH]nc(CC(C)C)c3C2c2ccc(F)cc2C)cc1F` (stereo not shown) [CMLD011562]: the “SI Host cell potency/L. donovani potency” value is 68.1. Take `Cc1cc(F)ccc1C1c2c(CC(C)C)n[nH]c2C(=O)N1c1ccc2ncnn2c1` (stereo not shown) [CMLD010948]: the “SI Host cell potency/L. donovani potency” value is on record as greater than 24.4. Same read-out and setting: the figure for `COc1ccc(N2C(=O)c3[nH]nc(CC(C)C)c3C2c2ccccc2OC)cn1` (stereo not shown) [CMLD011567] is greater than 76.9; for `Cc1cc(F)ccc1C1c2c(CC(C)C)n[nH]c2C(=O)N1c1ccc2c(c1)OCO2` (stereo not shown) [CMLD011564] it is 120.8.

Values taken from patent publication US20230381142A1, “ANTILEISHMANIAL COMPOUNDS, COMPOSITIONS AND USE THEREOF” (TRUSTEES OF BOSTON UNIVERSITY, priority 2022, published 2023).
